Results of unrelated studies side by side (data: NIAID ChemDB).

All rows: whole-cell or culture tests; agent: HIV-1; measure: fold resistance

Blank or dashed fields: not listed here. Neighbouring rows are from separate reports. Fold resistance has wild type as its base.

| smiles | cell line | conditions | read by | changes | strain | value |
|---|---|---|---|---|---|---|
| CC(C)[C@H](NC(=O)c1ccc2ccccc2n1)C(=O)N[C@@H](Cc1ccccc1)[C@H](O)CN1CC[C@@H](SCc2cccnc2)C[C@H]1C(=O)NC(C)(C)C | C8166 | - | p24 | PR-I84V | BILA2185-resistant (PR I84V) | 2 |
| Cc1c(O)cccc1C(=O)N[C@@H](CSc1ccccc1)[C@H](O)CN1C[C@H]2CCCC[C@H]2C[C@H]1C(=O)NC(C)(C)C | PBMC | - | p24 | PR-L10I K43T M46L I54L L63P A71T V82A L90M Q92K | Clinical isolate | 17.8 |
| Cc1cn([C@H]2C[C@H](N=[N+]=[N-])[C@@H](CO)O2)c(=O)[nH]c1=O | CEM | - | syncytia | RT-Y181C | IIIB nevirapine-resistant (RT Y181C) | 1.67 |
| Cn1c2ccccc2c2c1cc(C#N)c(=O)n2-c1ccc([N+](=O)[O-])cc1 | HeLa | - | luciferase | RT-T69K K70G V75I F77L F116Y Q151M M184V | NRTI resistant | 15.7 |
| Cc1cn([C@H]2C[C@H](N=[N+]=[N-])[C@@H](CO)O2)c(=O)[nH]c1=O | C8166 | - | p24 | RT-M41L L74V V106A T215F | - | 3 |
| Nc1nc(N)c2ncn([C@H]3CO[C@@H](CO)O3)c2n1 | MT-2 | - | cytopathic effect / XTT | RT-L74V | - | 4 |
| CN[C@H]1CO[C@@H]2OCC[C@H](OC(=O)N[C@@H](Cc3cccc(OC)c3)[C@H](O)CN(CC(C)C)S(=O)(=O)c3ccc4nc(NC(C)C)sc4c3)[C@@H]21 | MT-4 | - | p24 / luminescence | L10I L33I M36I M46I I54V K55R I62V L63P A71V G73S V82T L90M I93L | NL4-3 | 1.1 |
| Cc1cn([C@H]2C[C@H](N=[N+]=[N-])[C@@H](CO)O2)c(=O)[nH]c1=O | - | - | - | INTG-Q148K | - | 1 |
| CC(C)(C)NC(=O)[C@@H]1C[C@@H]2CCCC[C@@H]2CN1C[C@@H](O)[C@H](Cc1ccccc1)NC(=O)[C@H](CC(N)=O)NC(=O)c1ccc2ccccc2n1 | PBMC | - | p24 | PR-L10R N37D M46I I62V L63P A71V G73S V77I V82T L90M I93L | Clinical isolate | 4.2 |
| Cc1cn([C@H]2C[C@H](N=[N+]=[N-])[C@@H](CO)O2)c(=O)[nH]c1=O | HT4LACZ-1 + HT4 LacZ-1 | - | plaque count | RT-M41L D67N K70R M184V T215Y | RTMQ+184V (RT M41L D67N K70R M184V T215Y) | 1.5 |
| CN(C)c1cccc2c1nc(-c1c(F)cccc1F)n2Cc1c(F)cccc1F | MT-4 | - | cytopathic effect / MTT | RT-M184I | - | 0.97 |
| NC(=O)[C@H](Nc1ccccc1[N+](=O)[O-])c1c(Cl)cccc1Cl | - | - | p24 | RT-I135T Q207E T215F K219Q | AZT-resistant (RT I135T Q207E T215F K219Q) | 5.62 |
| Cc1cn([C@H]2C[C@H](N=[N+]=[N-])[C@@H](CO)O2)c(=O)[nH]c1=O | CEM + CEM-SS | - | XTT | RT-Y181C | Diphenyl sulfone-resistant (RT-Y181C) | 0.2 |
| Cc1cn([C@@H]2O[C@H](CO[Si](C)(C)C(C)(C)C)[C@]3(C(N)=CS(=O)(=O)N3C)[C@H]2O[Si](C)(C)C(C)(C)C)c(=O)n(C(=O)OC(C)(C)C)c1=O | CEM | - | cytopathic effect | RT-Y181C | - | >2.85 |
| Fc1ccc(F)c(C2OCc3nc4ccccc4n32)c1 | CEM | - | cytopathic effect | RT-E138K | IIIB | ≥2.42 |
| CC[C@]1(c2ccccc2)Oc2cccnc2-n2cccc2C1=O | PBMC | - | RT activity | RT-M41L K103N T215Y | Resistant (MDR) isolate | 85 |
| Nc1nc2c(ncn2[C@H]2CO[C@@H](CO)O2)c(=O)[nH]1 | MT-2 | - | cytopathic effect / XTT | RT-F116Y Q151M T215Y | - | 10 |
| CC(C)=CCN1Cc2cc(Cl)cc3[nH]c(=S)n(c23)C[C@@H]1C | CEM | - | cytopathic effect | RT-L100I | IIIB | 109 |
| C[C@]1(CO)O[C@@H](n2ccc(N)nc2=O)C[C@@H]1O | HeLa | - | β-galactosidase | RT-L74V | - | 0.89 |
| CCOCn1c(Cc2cc(C)cc(C)c2)c(CC)c(=O)[nH]c1=O | CEM | - | syncytia | RT-L100I E138K | IIIB TIBO R82913 STR-B02 (RT L100I E138K) | 100 |
| Nc1ccn([C@H]2CC[C@@H](CO)O2)c(=O)n1 | H9 | - | p24 | RT-K65R | HXB2D (RT-K65R) | 8.67 |
| O=c1[nH]cnc2c1ncn2[C@H]1CC[C@@H](CO)O1 | HELA-CD4+ | - | plaque count | RT-D67N T215Y | JF18(RT-D67N T215Y) | 1.35 |
| O=c1[nH]cnc2c1ncn2[C@H]1CC[C@@H](CO)O1 | CEM | - | syncytia | RT-L100I | IIIB | 0.97 |
| Nc1ccn([C@H]2CC[C@@H](CO)O2)c(=O)n1 | MT-4 | - | p24 | RT-M184V | 126 3TC (RT-M184V) | 8 |
| Nc1nc(=O)n([C@@H]2CS[C@H](CO)O2)cc1F | HT4 + HT4 LacZ-1 | - | plaque count | RT-M41L 215Y | RTMN (RT-M41L T215Y) | 3.78 |
| CC(C)=CCOc1cc(NC(=S)c2ccsc2C)ccc1Cl | CEM | - | syncytia | RT-V179D | IIIB | 6.67 |
| CC(C)C[C@@H]1[C@H](O)[C@@H](O)[C@@H](CC(C)C)N(Cc2cccc(C(=O)Nc3nc4ccccc4[nH]3)c2)C(=O)N1Cc1cccc(C(=O)Nc2nc3ccccc3[nH]2)c1 | MT-2 | 3 d | - | PR-I84V V82F | RF | 0.203 |
| CC(C)=CCN1Cc2cccc3[nH]c(=S)n(c23)C[C@@H]1C | CEM | - | syncytia | RT-L100I Y181C | IIIB TIBO R82913 STR-1 (RT L100I Y181C) | ≥250 |
| Cc1cn([C@H]2C[C@H](N=[N+]=[N-])[C@@H](CO)O2)c(=O)[nH]c1=O | MT-4 | - | p24 | RT-M184V | HXB2D (RT-M184V) | 1.25 |
| Cc1cccc(C)c1OCC(=O)N[C@@H](Cc1ccccc1)[C@H](O)CN1CC[C@@H](Sc2ccncc2)C[C@H]1C(=O)NC(C)(C)C | C8166 | - | p24 | PR-V32I A71V | BILA1906-resistant (PR V32I A71V) | 4 |
| O=S(=O)(O)OC1C(OS(=O)(=O)O)C(OS(=O)(=O)O)C(OS(=O)(=O)O)C(OS(=O)(=O)O)C1OS(=O)(=O)O | MT-4 | - | cytopathic effect / MTT | GP120-R302S | NL4-3 | >25 |
| O=C1N(Cc2ccc(CO)cc2)[C@H](COc2ccccc2)[C@H](O)[C@@H](O)[C@@H](COc2ccccc2)N1Cc1ccc(CO)cc1 | MT-4 | - | cytopathic effect / XTT | PR-I84V L90M | IIIB | 2.86 |
| Nc1ncnc2c1ncn2CCOCP(=O)(O)O | PBMC | - | p24 | RT-K65R | HXB2D (RT-K65R) | 15.6 |
| CC(C)CN(C[C@@H](O)[C@H](Cc1ccccc1)NC(=O)O[C@H]1CCO[C@H]2OCC[C@H]21)S(=O)(=O)c1ccc2nc(NC3CC3)sc2c1 | MT-4 | - | p24 / luminescence | L10I L33I M36I M46I I54V K55R I62V L63P A71V G73S V82T L90M I93L | NL4-3 | 63 |
| CCCCCCCSc1nsc(NC(=O)Nc2ccccc2)n1 | MT-4 | - | cytopathic effect | RT A62V 69SS K70R E79K V118I M184V E203K L210W T215Y | NL4-3 | 1.03 |
| Cc1cn([C@@H]2O[C@H](CO[Si](C)(C)C(C)(C)C)C3(OS(=O)(=O)C(Br)=C3N)[C@H]2O[Si](C)(C)C(C)(C)C)c(=O)[nH]c1=O | CEM | - | cytopathic effect | RT-E138K | TSAO-m3T-resistant (RT E138K) | >2.35 |
| Nc1ccn([C@H]2CC[C@@H](CO)O2)c(=O)n1 | MT-2 | - | p24 | 1 (Δ.67+T69G+K103N) | RT Δ.67 T69G K103N | 2.6 |
| Cc1cn([C@@H]2O[C@H](CO[Si](C)(C)C(C)(C)C)[C@]3(C(N)=CS(=O)(=O)N3C)[C@H]2O[Si](C)(C)C(C)(C)C)c(=O)n(C)c1=O | CEM | - | cytopathic effect | RT-E138K | - | >100 |
| Nc1nc(=O)n([C@@H]2CO[C@H](CO)S2)cc1F | CBMC | - | RT activity | RT-M184V | HXB2D (RT-M184V) | 2.14 |
| CCOCn1c(Cc2ccccc2)c(C(C)C)c(=O)[nH]c1=O | MT-4 | - | cytopathic effect / MTT | RT-Y181C | IIIB | 2200 |
| Nc1ccn([C@@H]2CO[C@H](CO)S2)c(=O)n1 | C8166 | - | p24 | RT-M41L L74V V106A T215Y | HXB2 | 2.67 |
| CCN(c1ncccc1NC(C)(C)C)C1CCN(C(=O)c2cc3cc(NS(C)(=O)=O)ccc3[nH]2)CC1 | - | - | p24 | RT-T139I | IIIB | 2.02 |
| CC(C)(C)C(=O)c1sc(C(=O)NCc2ccccc2)c(O)c1O | - | - | - | INTG-S153 N155S | - | 2 |
| Nc1nc(NC2CC2)c2ncn([C@H]3C=C[C@@H](CO)C3)c2n1 | HeLa | - | luciferase | RT-M184V | Recombinant | 4.7 |
| Cc1ccnc2c1NC(=O)c1cccnc1N2C1CC1 | CEM + CEM-SS | - | XTT | RT-T139I | Calanolide A-resistant (RT T139I) | 3 |
| Nc1nc(NC2CC2)c2ncn([C@H]3C=C[C@@H](CO)C3)c2n1 | MT-2 | - | cytopathic effect / XTT | RT-K65R Y115F M184V | Site-directed mutant | >8 |
| CCN[C@H]1CO[C@@H]2OCC[C@H](OC(=O)N[C@@H](Cc3cccc(OC)c3)[C@H](O)CN(CC(C)C)S(=O)(=O)c3ccc4nc(NC(C)C)sc4c3)[C@@H]21 | MT-4 | - | p24 / luminescence | L10F V32I L33F M46L I54M A71V | NL4-3 | 2 |
| C=C(C)OC(=O)N1c2cc(Cl)ccc2NC(=S)C1(C)C | MT-4 | - | cytopathic effect | RT-V106A | Recombinant | 30 |
| COc1c(O)c(Cl)c2c(c1OC)-c1c(c(Cl)c(O)c(OC)c1OC)C[C@H](C)[C@H](C)C2 | MT-4 | - | cytopathic effect / MTT | RT-L100I | TIBO-resistant L100I (RT-L100I) | 1 |
| Cc1cn([C@@H]2O[C@H](CO[Si](C)(C)C(C)(C)C)C3(OS(=O)(=O)C=C3N)[C@H]2O[Si](C)(C)C(C)(C)C)c(=O)n(C)c1=O | CEM | - | syncytia | RT-K103N | IIIB TIBO R82913 STR-2 (RT K103N) | 4 |
| CC(=O)Nc1cccc2c1nc(-c1c(F)cccc1F)n2Cc1c(F)cccc1F | MT-4 | - | cytopathic effect / MTT | RT-L100I | - | 16 |
| Nc1nc(NC2CC2)c2ncn([C@H]3C=C[C@@H](CO)O3)c2n1 | PBMC | - | cytopathic effect / MTT | RT-K65R | BRU PITT.(RT-K65R) | 4 |
| Nc1nc(=O)n([C@@H]2C[Se][C@H](CO)O2)cc1F | PBMC | - | RT activity | RT-M184V | BRU(RT-M184V) | >455 |
| CC(C)=CCOc1cc(NC(=S)c2ccoc2C)ccc1Cl | MT-4 | - | cytopathic effect | RT-V106A P225H | Recombinant | 129 |
| Cc1cn([C@@H]2O[C@H](CO[Si](C)(C)C(C)(C)C)C3(OS(=O)(=O)C(I)=C3N)[C@H]2O[Si](C)(C)C(C)(C)C)c(=O)n(C)c1=O | CEM | - | cytopathic effect | RT-E138K | TSAO-m3T-resistant (RT E138K) | >40 |
| Cc1cccc(C)c1OCC(=O)N[C@@H](Cc1ccccc1)[C@@H](O)C[C@H](Cc1ccccc1)NC(=O)[C@H](C(C)C)N1CCCNC1=O | PBMC | - | RT activity | PR-L10I M46I I54V L63P V82F L90M | 1002-60 PI-resistant | 441 |
| CCOCn1c(Cc2ccccc2)c(C(C)C)c(=O)[nH]c1=O | MT-4 | - | cytopathic effect | RT-V106A | Recombinant | 25 |
| CC(C)(C)OC(=O)N[C@@H](Cc1ccccc1)[C@H](O)CNC[C@@H](O)[C@H](Cc1ccc(OCC(=O)N2CCOCC2)cc1)NC(=O)OC(C)(C)C | - | - | - | PR-A71T V82A | BMS-186318-resistant (PR A71T V82A) | 32.1 |
| Nc1ccn([C@@H]2S[C@H](CO)C=C2F)c(=O)n1 | PBMC | - | - | RT-M184V | 3TC-resistant (RT M184V) | 25 |
| CC(C)(C)NC(=O)[C@@H]1CN(Cc2cccnc2)CCN1C[C@@H](O)C[C@@H](Cc1ccccc1)C(=O)N[C@H]1c2ccccc2C[C@H]1O | PBMC | - | p24 | PR-L10R N37D M46I I62V L63P A71V G73S V77I V82T L90M I93L | Clinical isolate | 42.3 |
| COc1c(O)c(I)c2c(c1OC)-c1c(c(I)c(O)c(OC)c1OC)C[C@H](C)[C@H](C)C2 | MT-4 | - | cytopathic effect / MTT | RT-Y188L | 1506-RS (RT-Y188L) | >76.9 |

The last 5 rows once more:

smiles,cell line,conditions,read by,changes,strain,value
CCOCn1c(Cc2ccccc2)c(C(C)C)c(=O)[nH]c1=O,MT-4,-,cytopathic effect,RT-V106A,Recombinant,25
CC(C)(C)OC(=O)N[C@@H](Cc1ccccc1)[C@H](O)CNC[C@@H](O)[C@H](Cc1ccc(OCC(=O)N2CCOCC2)cc1)NC(=O)OC(C)(C)C,-,-,-,PR-A71T V82A,BMS-186318-resistant (PR A71T V82A),32.1
Nc1ccn([C@@H]2S[C@H](CO)C=C2F)c(=O)n1,PBMC,-,-,RT-M184V,3TC-resistant (RT M184V),25
CC(C)(C)NC(=O)[C@@H]1CN(Cc2cccnc2)CCN1C[C@@H](O)C[C@@H](Cc1ccccc1)C(=O)N[C@H]1c2ccccc2C[C@H]1O,PBMC,-,p24,PR-L10R N37D M46I I62V L63P A71V G73S V77I V82T L90M I93L,Clinical isolate,42.3
COc1c(O)c(I)c2c(c1OC)-c1c(c(I)c(O)c(OC)c1OC)C[C@H](C)[C@H](C)C2,MT-4,-,cytopathic effect / MTT,RT-Y188L,1506-RS (RT-Y188L),>76.9